Laboratory results: the NIST ThermoML archive (doi:10.1021/acs.jced.7b00458)

Settings: 100 kPa, Liquid; for electrical conductivity: Alternating current cell with electrodes; for viscosity: Concentric cylinders viscometry; for mass density: Vibrating tube method

Row | SMILES | electrical conductivity (298.15 K) [S/m] | viscosity (298.15 K) [mPa·s] | mass density (298.15 K) [kg/m3] | electrical conductivity (300.15 K) [S/m] | viscosity (300.15 K) [mPa·s] | mass density (300.15 K) [kg/m3] | electrical conductivity (306.15 K) [S/m] | viscosity (306.15 K) [mPa·s] | mass density (306.15 K) [kg/m3] | electrical conductivity (312.15 K) [S/m] | viscosity (312.15 K) [mPa·s] | mass density (312.15 K) [kg/m3] | electrical conductivity (318.15 K) [S/m] | viscosity (318.15 K) [mPa·s] | mass density (318.15 K) [kg/m3] | electrical conductivity (324.15 K) [S/m] | viscosity (324.15 K) [mPa·s] | mass density (324.15 K) [kg/m3] | electrical conductivity (330.15 K) [S/m] | viscosity (330.15 K) [mPa·s] | further results
1 | CCCC[N+]1(C)CCCC1.O=S(=O)(F)[N-]S(=O)(=O)F [1-butyl-1-methylpyrrolidinium bis(fluorosulfonyl)amide] | 0.866 ± 0.087 | 53.24 ± 0.35 | 1307 ± 1 | 0.917 ± 0.092 | 49.74 ± 0.35 | 1306 ± 1 | 1.09 ± 0.11 | 40.74 ± 0.29 | 1301 ± 1 | 1.27 ± 0.13 | 33.83 ± 0.24 | 1296 ± 1 | 1.47 ± 0.15 | 28.42 ± 0.2 | 1292 ± 1 | 1.68 ± 0.17 | 24.15 ± 0.17 | 1287 ± 1 | 1.91 ± 0.19 | 20.73 ± 0.15 | mass density (330.15 K): 1283 ± 1 kg/m3; electrical conductivity (336.15 K): 2.16 ± 0.22 S/m; viscosity (336.15 K): 17.94 ± 0.13 mPa·s; mass density (336.15 K): 1278 ± 1 kg/m3; viscosity (341.15 K): 16.01 ± 0.11 mPa·s; mass density (341.15 K): 1274 ± 1 kg/m3; electrical conductivity (348.15 K): 2.69 ± 0.27 S/m; viscosity (348.15 K): 13.77 ± 0.1 mPa·s; mass density (348.15 K): 1269 ± 1 kg/m3; viscosity (355.15 K): 11.95 ± 0.09 mPa·s; mass density (355.15 K): 1264 ± 1 kg/m3; electrical conductivity (361.15 K): 3.31 ± 0.33 S/m; viscosity (361.15 K): 10.65 ± 0.08 mPa·s; mass density (361.15 K): 1259 ± 1 kg/m3; viscosity (373.15 K): 8.61 ± 0.062 mPa·s; mass density (373.15 K): 1251 ± 1 kg/m3
2 | CCCCC[P+](CC)(CC)CC.O=S(=O)(F)[N-]S(=O)(=O)F [triethyl(pentyl)phosphonium bis(fluorosulfonyl)amide] | 0.463 ± 0.056 | 69.38 ± 0.53 | 1219 ± 1 | 0.495 ± 0.059 | 64.02 ± 0.46 | 1217 ± 1 | 0.602 ± 0.072 | 50.72 ± 0.33 | 1213 ± 1 | 0.723 ± 0.087 | 40.86 ± 0.29 | 1208 ± 1 | 0.861 ± 0.1 | 33.4 ± 0.24 | 1204 ± 1 | 1.02 ± 0.12 | 27.65 ± 0.2 | 1199 ± 1 | 1.19 ± 0.14 | 23.17 ± 0.16 | mass density (330.15 K): 1195 ± 1 kg/m3; electrical conductivity (336.15 K): 1.37 ± 0.16 S/m; viscosity (336.15 K): 19.66 ± 0.14 mPa·s; mass density (336.15 K): 1191 ± 1 kg/m3; viscosity (341.15 K): 17.25 ± 0.12 mPa·s; mass density (341.15 K): 1187 ± 1 kg/m3; electrical conductivity (348.15 K): 1.76 ± 0.21 S/m; viscosity (348.15 K): 14.52 ± 0.1 mPa·s; mass density (348.15 K): 1182 ± 1 kg/m3; viscosity (355.15 K): 12.37 ± 0.09 mPa·s; mass density (355.15 K): 1177 ± 1 kg/m3; electrical conductivity (361.15 K): 2.23 ± 0.27 S/m; viscosity (361.15 K): 10.86 ± 0.08 mPa·s; mass density (361.15 K): 1173 ± 1 kg/m3; viscosity (373.15 K): 8.543 ± 0.061 mPa·s; mass density (373.15 K): 1165 ± 1 kg/m3

± gives the expanded uncertainty stated by the source.
